Data taken from patent publication US9549914B2, “Treatment of human cytomegalovirus by modulating Wnt” (priority 2014, dated 2017).

System: pp28-luciferase HCMV Towne strain
Assay type: cell-based, Human Cytomegalovirus (HCMV)
Conditions: pp28-luc HCMV in HFFs; mean ± SD
Experimental: The pp28-luciferase HCMV Towne strain was constructed as previously described (14). This virus expresses luciferase under the control of the late CMV gene promoter, pp28. Luciferase expression is strongly activated 48-72 hours post infection (hpi). […] A GCV-resistant HCMV strain was obtained from a patient with CMV disease. […] Human herpes virus strains were: luciferase HSV1-KOS/Dlux/oriS (15) and clinical isolates of HSV1 and HSV2. All clinical isolates were provided by the clinical virology laboratory with no identifiers that can link to a specific subject. The Johns Hopkins Office of Human Subject Research Institutional Review Board determined that this research qualified for an exemption.
Human Foreskin Fibroblasts (HFFs) passage 12-16 (ATCC, CRL-2088™) were grown in Dulbecco's Modified Eagle Medium (DMEM) containing 10% fetal bovine serum (FBS) (Gibco, Carlsbad, Calif.) in a 5% CO2 incubator at 37° C. and used for infection with HCMV or HSV at multiplicity of infection of 1 PFU/cell (MOI=1) unless otherwise specified. Following 90 minute adsorption (60 min for HSV), media was removed and cells were washed with PBS. DMEM with 4% FBS containing compounds was added to each well. For HCMV, infected, treated HFFs were collected at 72 hpi and lysates were assayed for luciferase activity using a luciferase assay kit (Promega, Madison, Wis.) on GloMax®-Multi+ Detection System (Promega) according to manufacturer's instructions.

| Structure (SMILES) | slope of the dose response curve |
| --- | --- |
| Nc1nc(O)c2ncn(COC(CO)CO)c2n1 [GCV, ganciclovir] | 1.3 ± 0.06 |
| CC[C@@]1([C@@H]2O[C@@H]([C@H]3O[C@@](O)(CO)[C@H](C)C[C@@H]3C)C[C@@H]2C)CC[C@H]([C@]2(C)CC[C@]3(C[C@H](O)[C@@H](C)[C@@H]([C@@H](C)[C@@H](OC)[C@H](C)C(=O)O)O3)O2)O1 [Monensin] | 1.2 ± 0.11 |
| CO[C@@H]1C[C@@H](C[C@H]2CC[C@H](C)[C@H]([C@@H](C)C(=O)O)O2)O[C@]2(O[C@](C)([C@H]3CC[C@@](C)([C@@H]4O[C@@H]([C@H]5O[C@@](O)(CO)[C@H](C)C[C@@H]5C)C[C@@H]4C)O3)C[C@H]2C)[C@@H]1C [Nigericin, nigericin] | 1.4 ± 0.16 |
| CC[C@@H](C(=O)[C@@H](C)[C@@H](O)[C@H](C)[C@@H]1O[C@@H]([C@@H](CC)C(=O)O)CC[C@@H]1C)[C@H]1O[C@]2(C=C[C@@H](O)[C@]3(CC[C@@](C)([C@H]4CC[C@](O)(CC)[C@H](C)O4)O3)O2)[C@H](C)C[C@@H]1C [Salinomycin, salinomycin] | 1.4 ± 0.16 |
